Percent effect of library compounds

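Growth of Mycobacterium tuberculosis over 3 days (7H9 medium with glucose and tyloxapol); the read-out is not stated. Concentration: 500 µM. Direction is inferred from retests: higher values go with more growth inhibition. Size under these conditions: about 18,000 compounds, about 1,400 of them at 50% or above in at least one test.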

Values are the deposited “Percent Effect”, in %.
How 0% and 100% were set is not recorded. Most values in the screen are low, and negative values occur.
The entries come from a sample that favours strong results.

Result for Cn1cc(C(=O)NCCCN2CCOCC2)ccc1=O was 0.8018%.
Result for O=C(CCC(=O)c1ccccc1)NCc1cccnc1 was 3.137%.
Result for Cc1ccnc(CN)n1 was 7.061%.
Result for O=C(C1CC12CCNCC2)N1CCCCC1 (stereo not given) was 2.459%.
Result for NC(=O)C1CCCN1S(=O)(=O)Cc1cc(Cl)ccc1F (stereo not given) was 9.89%.
Result for CCc1cc(C(=O)NC(CC)c2ncc[nH]2)[nH]n1 (stereo not given) was 2.801%.
Result for O=C(CC1COCCN1Cc1ccon1)c1cccs1 (stereo not given) was 55.18%.
Result for NCCc1ccc(CO)cc1 was 23.57%.
Result for CC(C)C(=O)NCc1ccnc(N2CCOCC2)c1 was 1.835%.
Result for CCOc1ccccc1[C@@H](C)N was 24.24%.
Result for O=C(CNc1ccccc1Cl)Nc1cccnc1O was 18.51%.
Result for CC(=O)c1ccc(CNC(=O)c2scnc2C)nc1C was 6.221%.
Result for Cc1cccc2c1OCCC2N (stereo not given) was 4.061%.
Result for CCC1(O)CCCN(C(=O)Cc2cnccn2)C1 (stereo not given) was -3.554%.
Result for CC(C(N)=O)S(=O)(=O)c1ncccc1Cl (stereo not given) was 5.009%.
Result for CCOc1cccc(CNc2nc(N(C)C)n[nH]2)c1 was 53.97%.
Result for CO[C@H]1CNCC1NC(=O)c1cc2ccccc2n1C (stereo not given in full) was 58.05%.
Result for O=S(=O)(NCC(O)COCc1ccco1)c1cccs1 (stereo not given) was 37.16%.
Result for CCNCC(=O)Nc1cccc(OC)c1 was 15.31%.
Result for c1snnc1CNCC1COC2(CCCCC2)O1 (stereo not given) was 56.1%.
Result for O=C(NCc1cccnc1)C1COc2ccccc2O1 (stereo not given) was 54.77%.
Result for OCC1CSc2ccccc21 (stereo not given) was 24.2%.
Result for CC(=O)CC1COCCN1S(=O)(=O)c1cccc(F)c1 (stereo not given) was 4.776%.
Result for CC1CCN(CCC(=O)Nc2sccc2C(N)=O)CC1 was 46.72%.
Result for CN(CCNC(=O)c1cc[nH]n1)Cc1ccccc1 was 11.26%.
Result for CCCn1nccc1C(=O)N1CCn2cncc2C1 was -0.4258%.
Result for CCC(C(=O)NCc1cn2c(n1)SCC2)n1cccn1 (stereo not given) was 17.19%.
Result for COc1ccc(NC(C(N)=O)c2ccc(Br)cc2)cn1 (stereo not given) was 53.44%.
Result for CNCc1ccc(Cn2ccnc2)cc1 was 1.973%.
Result for CC(=O)N1CCC(NCc2ccc3c(c2)OCO3)CC1 was 10.8%.
Result for Cc1cccc2[nH]cc(CCN)c12 was 84.83%.
Result for CC(c1cccs1)N(C)CC(=O)N1CCNC1=O (stereo not given) was 10.67%.
Result for Nc1nnc(SCc2coc(-c3ccccc3)n2)[nH]1 was 65.71%.
Result for OCCNCCNCc1ccc(-c2ccccc2F)o1 was 62.58%.
Result for CN(Cc1nc(-c2cccs2)no1)C(=O)C(C)(C)C was -1.201%.
Result for CC(=O)Nc1ccc(CCN)cc1 was 14.88%.
Result for COCc1noc(CCNC(=O)c2cccn2C)n1 was 5.032%.
Result for CC(OC(=O)c1ccc(C(F)(F)F)cc1)C(N)=O (stereo not given) was 67.97%.
Result for CC(C(=O)NCc1cccs1)S(=O)(=O)C1CCCC1 (stereo not given) was 54.76%.
Result for CN(C)C(CCN)c1ccccc1 (stereo not given) was 8.636%.
Result for O[C@@H]1CNC[C@H](O)C1 was 5.407%.
Result for COc1ccc(C(=O)NC2=NCCS2)cn1 was 16.09%.
Result for COCC(C)Nc1ccc2nnc(C3CC3)n2n1 (stereo not given) was -1.82%.
Result for CC(=O)c1ccc(C(=O)N[C@@H]2CS(=O)(=O)C[C@H]2O)s1 was 5.167%.
Result for CNCC(=O)NC(Cc1cccc(OC)c1)C1CC1 (stereo not given) was 32.82%.
Result for CC1CCCN(C(=O)c2csc(S(N)(=O)=O)c2)C1 (stereo not given) was -2.069%.
Result for Cc1c[nH]c(CN(C)Cc2ccncc2Cl)n1 was -4.979%.
Result for CCc1ccc(S(=O)(=O)N2CC[C@@H](N)C2)cc1CC was 73.3%.
Result for CSCc1nc(CNCC2(O)CCCNC2)cs1 (stereo not given) was 9.915%.
Result for CC1CN(C(=O)NCc2ccc(Br)s2)CC(=O)N1C (stereo not given) was 39.86%.
Result for Nc1ccc(C(=O)N2CCC(n3cnnc3)CC2)cn1 was 13.76%.

Source: ChEMBL document CHEMBL3988442, “University of Dundee, Small-Polar-MMV Screening Library” (2021).